Values quoted from earlier work, collected in paper PMC6470885 (Molecules, 2019).

Settings: rat, in vivo; cited from earlier work

Albuvirtide
half-life (t1/2): 25.8 h
